Patent publication US20250019422A1 (MAX PLANCK GESELLSCHAFT ZUR F RDERUNG DER WISSENSCHAFTEN E V, published 2025)

Target: SARS-CoV-2 spike protein, original Wuhan strain (SARS-CoV-2 (Wuhan strain))
Test: cell-based or functional assay

Binder | Lowest neutralizing concentration (pM)
Re5D06R15 (VHH) VHH: QVQLVESGGGLVQPGGSLRLSCAASGITLDYYAMGWFREAPGKEREGVARIRNSDGSTNYADSVKGRFTMSRDNAKDTYYLQMNSLEPEDTADYYCAYGPLTKYGSSWYWPYEYDYWGQGTQVTVSS | 50
Re9F06-Re5D06R15_Tandem (bispecific antibody) EGSQVQLVESGGGLVQAGGSLRLSCAASGRTFSNDALGWFRQAPRKEREFVAAINWNSGTYYADSVKGRFTISRDNAKNTVYLQMNSLKPEDTAVYSCAAASDYGLPREDFLYDYWGQGTQVTVSETEGEGEGGGEGGEGSQVQLVESGGGLVEPGGSLRLSCAASGITLDYYAMGWFREAPGKEREGVARIRNSDGSTNYADSVKGRFTMSRDNAKDTYYLQMNSLEPEDTADYYCAYGPLTKYGSSWYWPYEYDYWGEGTEVTVSS | 50
Re9F06-Re5D06R28_Tandem (bispecific antibody) EGSQVQLVESGGGLVQAGGSLRLSCAASGRTFSNDALGWFRQAPRKEREFVAAINWNSGTYYADSVKGRFTISRDNAKNTVYLQMNSLKPEDTAVYSCAAASDYGLPREDFLYDYWGQGTQVTVSETEGEGEGGGEGGEGSQVQLVESGGGLVEPGGSLRLSCAISGSTLDYYAMGWFREAPGKEREGVARWRNNDGSTNYADSVKGRFTMSRDNAKDTYYLQMNSLEPEDTADYYCAYGPLTKYGSSWHWPYEYDYWGEGTEVTVSS | 50
Re30H02 (VHH) VHH: QVQLVESGGDSVQPGDSLRLSCAISGFTLDYYTIGWFRQAPGKEREGVSCIGSSDSSTSYADAVKGRFTISSDNAKNTVYLQMNNLKPEDTAVYYCAAGPATYYGGNWHHTCHANAMHYWGKGTLVTVSS | 50
Ma2H07 (VHH) VHH: QVQLVESGGGLVQPGGSLRLSCAYSGITLDYYAIGWFRQAPGKEREGVSYISSSNDRTDYADSVKGRFTISRDNAKNTVFLQMNSLQPEDTAVYYCATVTGTYYSGRWYYNWHPEAVDYWGKGTLVTVSS | 170
Ma2E06 (VHH, also called Ma02E06) VHH: QVQLVESGGDLVQPRGSLRLSCAASGITLDYYAIGWFRQAPGKEREGVSYISNTNDKTDYADSVKGRFTISRDNAENTVFLQMNSLQPEDTAVYYCATVPGTYYGGRWYYTWHPEAVRYWGKGTQVTVSS | 170
Ma2F10 (VHH) VHH: QVQLVESGGGLVQPGGSLRLSCAYSGITLDYYAIGWFRQAPGKEREGVSYISGSNDRTDYADSVKGRFTISRDNAKNTVFLQMNSLEPEDTAVYYCATVTGTYYSGRWYYNWHPEAVDYWGKGTLVTVSS | 50
Re32B11 (VHH) VHH: QVQLVESGGGLVQPGGSLRLSCATSGITLDYYAIGWFLQAPGKEREGVSCMRNSDGRTVYAPSVKGRFTISRDNAKKMVYLEMNNLKSEDTGVYYCAAGPLPPGISCRIPTPLGYDDWGQGTQVTVSS | 50
Re32F03 (VHH) VHH: QVQLVESGGGLVQPGGSLRLSCATSGITLDYYAIGWFLQAPGKEREGVACMRSSDERSLYAPSVKGRFTISRDNAKKTVYLEMNSLKPEDTGVYYCASGSVVPGTMCRIPTPLGYDDWGQGTQVTVSS | 50
Re32G06 (VHH) VHH: QVQLVESGGGLVQPGGSLRLSCAISGITLDYYAVGWFLQAPGKEREGISCMRNWDGRTVYAPSVKGRFTISSDNAKKMVYLEMNSLKSEDTGVYYCAAGPLPPGTSCRIPTPLGYDDWGQGTQVTVSS | 50
Re32D08 (VHH) VHH: QVQLVESGGGLVSPGGSLKLSCAASGLTLDYYGIGWFRQVPGKEREGVSCLGVPDNRTLYAPSVKGRFTISRDNAKNTFYLEMNSLNPEDSAVYYCAAGPVVPGHMCRIPTPLGYDYWGQGTQVTVSS | 70
